Measurements: article PMC5921579

System: O=P(O)(O)O[C@@H]1[C@H](O)[C@H](O)[C@@H](OP(=O)(O)O)[C@H](OP(=O)(O)O)[C@H]1O
Experiment: purified protein
Settings: 200 µM ATP, 2 mM MgCl2, 20 mM HEPES, 150 mM NaCl, pH 7.5, 37°C

Row | Substance | Km | Vmax | kcat/Km
1 | T. brucei IPMK (rIPMK, rTbIPMK) (Trypanosoma brucei brucei TREU927; D142A) | 113.0 (±31.93) µM | 660 µmol/min/mg | 97300 M⁻¹ s⁻¹
2 | T. brucei IPMK (rIPMK, rTbIPMK) (Trypanosoma brucei brucei TREU927; K164W) | 51.04 (±13.84) µM | 630 µmol/min/mg | 206000 M⁻¹ s⁻¹
